# Measured values published in the supplement of paper PMC10127200.
# This is a selection; strong and weak results do not stand in their true shares.
# Columns and labels:
# Assay in all cases: Euclidean distance of Cell Painting phenotypic profile (signed KS, 77 features) to DMSO centroid (dimensionless distance); higher = stronger phenotypic change vs DMSO (phenoactivity)
# Conditions in all cases: 48 h; 5 or 10 uM (library dependent)
# [1] = tested on: 786-O
# How it was run: (§1)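 Five cancer lines, together with a healthy fibroblast line, received library compounds for 48 h at a library-dependent 10 or 5 uM and 0.1% DMSO final. Harmony then derived 77 features from confocal 20X images (9 fields/well) of the stained cells, scoring each as a signed Kolmogorov-Smirnov statistic against same-plate vehicle wells. After plate-position correction, correlation weighting and replicate averaging at the top dose, phenoactivity was taken as each profile's Euclidean distance to the median vehicle profile.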
# [2] = tested on: A549
# How it was run: as §1
# [3] = tested on: DU145
# How it was run: as §1
# [4] = tested on: FB
# How it was run: as §1
# [5] = tested on: HEPG2
# How it was run: as §1
# [6] = tested on: OVCAR4
# How it was run: as §1
structure (smiles),measurement,setting,value
O=P([O-])([O-])F.[Na+].[Na+] [Sodium Monofluorophosphate],Euclidean distance,[1],0.823
same,Euclidean distance,[2],0.753
same,Euclidean distance,[3],0.818
same,Euclidean distance,[4],0.605
same,Euclidean distance,[5],0.72
same,Euclidean distance,[6],0.871
